Source: PubChem BioAssay AID504761 (Drosophila RNAi Screening Center, 2011)

Purpose: 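Fly genes whose silencing reduces dengue virus type 2 infection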 (primary screen)
System: D.Mel-2 cells from Drosophila
Reagents: long dsRNA against Drosophila genes
Treatment: infection with dengue virus type 2; dose and infection time not stated
Measured: 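Cells stained for dengue envelope protein and imaged; percent of infected cells per well on duplicate plates, ranked by infection, with stained nuclei counted for cell number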
Direction: infection score: higher = more virus-infected cells
Call rule: 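Low infection ranks in the two replicates (chance level up to 0.065) followed by a retest with a 1.5-fold or larger significant decrease, p below 0.05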
Meaning of the calls: active = confirmed: knock-down lowers infection; inactive = not picked or not confirmed
The screen tested about 22,000 reagents; below is an unselected part of those with a known target gene and a result. Over the whole deposit, 116 (0.52%) were called active. 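Calls depend on retest data that are not deposited; infection was ranked per plate without normalising between plates; the unit of the infection score is not given.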 The numbers tell different reagents against one gene apart. Not all columns of the deposit are shown. The record does not give: the amount of reagent, the time to read-out.

Which result is listed for Cpr76Bc #1?
infection score, replicate 1: 5.91; outcome: inactive

What is on record for Cpr76Bc #2?
infection score, replicate 1: 25.2; outcome: inactive

What did the screen give for NdufV3 #1?
infection score, replicate 1: 0.22; outcome: inactive

How did the screen score NdufV3 #2?
infection score, replicate 1: 6.95; outcome: inactive

With CG31559 #1, what was measured?
infection score, replicate 1: 8.68; outcome: inactive

What did the screen give for CG31559 #2?
infection score, replicate 1: 4.27; outcome: inactive

What is on record for qvr?
infection score, replicate 1: 3.88; outcome: inactive

Not a retest: an excerpt of the list.
CG31559 #1 → infection score, replicate 1: 8.68; outcome: inactive
CG31559 #2 → infection score, replicate 1: 4.27; outcome: inactive

Additional records:
For CG18063, what was measured?
infection score, replicate 1: 2.54; outcome: inactive

With Sqor #1, how do the results read?
infection score, replicate 1: 10.1; outcome: inactive

With Sqor #2, what was measured?
infection score, replicate 1: 5.74; outcome: inactive

With MED8, how do the results read?
infection score, replicate 1: 2.61; outcome: inactive

What is on record for CG10853 #1?
infection score, replicate 1: 0.57; outcome: inactive

How did the screen score CG10853 #2?
infection score, replicate 1: 1.45; outcome: inactive
